Compound potency records, mixed from different reports. Data source: NIAID ChemDB in PubChem.

Common to all: growth or infection tests; agent: Aspergillus flavus

A number after MIC or MFC names an inhibition level or a share of isolates. Blank or dashed fields: not listed here. Two numbers with a dash give a range or band. Rows are shuffled and stem from different studies.

SMILES	read by	endpoint	strain	value
C[C@@H]1[C@H](O)[C@@H](C)/C=C/C=C/CC/C=C/C=C/C=C/C=C/C(O[C@H]2O[C@H](C)[C@@H](O)[C@H](N)[C@@H]2O)CC2O[C@](O)(CC(O)C(O)CCC(O)CC(O)CC(O)CC(=O)O[C@H]1C)CC(O)C2C(=O)O		MIC		37 µg/mL
CC(C)(O)CCCNc1cccc2ncccc12	turbidity	MIC50		62.5 µg/mL
C[C@@H](c1ncncc1F)[C@](O)(Cn1cncn1)c1ccc(F)cc1F		MIC90		0.5–2 µg/mL
CC1=CC(=O)c2c(O)cccc2C1=O	broth dilution	MFC100	CCAM 080001	20 µg/mL
COc1cc(C)ccc1O	agar	MIC100		505 µg/mL
O=C(N/N=C\n1ccnc1)c1ccc([N+](=O)[O-])cc1	broth dilution	MIC50		484.2 µM
CC(C)=CCC/C(C)=C/CO	broth dilution	MFC	NRRL 501	288 µg/mL
O=C(O)/C=C/c1ccc(O)c(O)c1	agar	MIC100		>1000 µg/mL
FC(F)(F)c1cccc([Se][Se]c2cccc(C(F)(F)F)c2)c1	broth dilution	MIC		>64 µg/mL
CC[C@@H]([C@H](C)O)n1ncn(-c2ccc(N3CCN(c4ccc(OC[C@@H]5CO[C@@](Cn6cncn6)(c6ccc(F)cc6F)C5)cc4)CC3)cc2)c1=O		MIC		0.125–2 µg/mL
CCc1ccccc1O	agar	MIC50		128 µg/mL
C[C@H]1[C@H](O)[C@@H](C)/C=C/C=C/C=C/C=C/C=C/C=C/C=C/[C@H](O[C@@H]2O[C@H](C)[C@@H](O)[C@H](N)[C@@H]2O)C[C@@H]2O[C@](O)(C[C@@H](O)C[C@@H](O)CC[C@H](O)[C@@H](O)C[C@@H](O)CC(=O)O[C@H]1C)C[C@H](O)[C@H]2C(=O)O	broth dilution	MIC	ITCC 4517	1.95 µg/mL
[Al]#[P]	agar	MIC		3.5 µg/mL
Nc1[nH]c(=O)ncc1F		MIC90		>64 µg/mL
CNC(=S)N/N=C(\C)c1ccc(-n2ccnc2)cc1	broth dilution	MIC50		>915 µM
CCCCCOc1ccc(-c2ccc(-c3ccc(C(=O)N[C@H]4C[C@@H](O)[C@@H](O)NC(=O)[C@@H]5[C@@H](O)[C@@H](C)CN5C(=O)[C@H]([C@H](C)O)NC(=O)[C@H]([C@H](O)[C@@H](O)c5ccc(O)cc5)NC(=O)[C@@H]5C[C@@H](O)CN5C(=O)[C@H]([C@H](C)O)NC4=O)cc3)cc2)cc1		MIC50		0.015 µg/mL
COc1ccc(Cn2nc(C3CC3)cc2NC(=O)c2ccc(F)cc2F)cc1		MIC		11 µg/mL
CCCCCOc1ccc(-c2cc(-c3ccc(C(=O)N[C@H]4C[C@@H](O)[C@@H](O)NC(=O)[C@@H]5[C@@H](O)[C@@H](C)CN5C(=O)[C@H]([C@H](O)CC(N)=O)NC(=O)[C@H]([C@H](O)[C@@H](O)c5ccc(O)c(OS(=O)(=O)O)c5)NC(=O)[C@@H]5C[C@@H](O)CN5C(=O)[C@H]([C@@H](C)O)NC4=O)cc3)no2)cc1		MIC		0.015–8 µg/mL
CN(C)C1=NC(=O)/C(=C/c2ccccc2)S1	broth dilution	MIC100	ATCC 9170	>250 µg/mL
COc1ccc([Se][Se]c2ccc(OC)cc2)cc1	broth dilution	MIC		>64 µg/mL
O=C1c2cc(CO)cc(O)c2C(=O)c2cc(O)cc(O)c21	broth dilution	MIC		31.25 µg/mL
COc1cc(/C=C2\SC(N(C)C)=NC2=O)cc(OC)c1OC	broth dilution	MIC100	ATCC 9170	>250 µg/mL
COc1ccc(Cn2nc(C3CC3)cc2NC(=O)c2ccc(Cl)cc2Cl)cc1		MIC		23 µg/mL
CN(C)C1=NC(=O)/C(=C/c2ccc([N+](=O)[O-])cc2)S1	broth dilution	MIC100	ATCC 9170	>250 µg/mL
COc1ccc(OC)c(C=O)c1	agar	MIC	NRRL3357	1500 µM
CCNC1=CC(=O)c2ccccc2C1=O	broth dilution	MIC100	MTCC 277	500 µg/mL
C[C@@H]1OC(OC[C@H]2OC(Oc3c(-c4ccc(O)c(O)c4)oc4cc(O)cc(O)c4c3=O)[C@H](O)[C@@H](O)[C@@H]2O)[C@H](O)[C@H](O)[C@H]1O		MIC		320 µM
Oc1cccc2oc(-c3ccccc3)cc(=Nc3ccccc3N=c3cc(-c4ccccc4)oc4cccc(O)c34)c12	agar diffusion	MIC		72 µg/mL
NC(=S)N/N=C/c1ccc(-n2ccnc2)cc1	broth dilution	MIC50		>1020 µM
O=C/C=C/c1ccccc1	agar	MIC	NRRL3357	500 µM
C=CCc1ccc(O)c(OC)c1	broth dilution	MFC	NRRL 501	320 µg/mL
C[C@@H]1[C@H](O)[C@@H](C)/C=C/C=C/CC/C=C/C=C/C=C/C=C/C(O[C@H]2O[C@H](C)[C@@H](O)[C@H](N)[C@@H]2O)CC2O[C@](O)(CC(O)C(O)CCC(O)CC(O)CC(O)CC(=O)O[C@H]1C)CC(O)C2C(=O)O	broth dilution	MIC100	MTCC 277	125 µg/mL
C[C@@H]1O[C@@H](OC[C@H]2O[C@@H](Oc3c(-c4ccc(O)cc4)oc4cc(O)cc(O)c4c3=O)[C@H](O)[C@@H](O)[C@@H]2O)[C@H](O)[C@H](O)[C@H]1O		MIC		320 µg/mL
O=C(N/N=C/c1ccc(-n2ccnc2)cc1)c1ccc([N+](=O)[O-])cc1	broth dilution	MIC50		>745.6 µM
O=C1C=C(N2CCOCC2)C(=O)c2ccccc21	broth dilution	MIC100	MTCC 277	250 µg/mL
COc1ccc(Cn2nc(C3CC3)cc2NC(=O)c2ccccc2)cc1		MIC		31 µg/mL
OCCCCNc1ccc2ncccc2c1	turbidity	MIC50		2 µg/mL

5 of the rows above, restated:

SMILES	read by	endpoint	strain	value
C[C@@H]1[C@H](O)[C@@H](C)/C=C/C=C/CC/C=C/C=C/C=C/C=C/C(O[C@H]2O[C@H](C)[C@@H](O)[C@H](N)[C@@H]2O)CC2O[C@](O)(CC(O)C(O)CCC(O)CC(O)CC(O)CC(=O)O[C@H]1C)CC(O)C2C(=O)O	broth dilution	MIC100	MTCC 277	125 µg/mL
COc1ccc(Cn2nc(C3CC3)cc2NC(=O)c2ccc(Cl)cc2Cl)cc1		MIC		23 µg/mL
C[C@@H](c1ncncc1F)[C@](O)(Cn1cncn1)c1ccc(F)cc1F		MIC90		0.5–2 µg/mL
O=C(N/N=C\n1ccnc1)c1ccc([N+](=O)[O-])cc1	broth dilution	MIC50		484.2 µM
C=CCc1ccc(O)c(OC)c1	broth dilution	MFC	NRRL 501	320 µg/mL